Compound potency records, mixed from different reports. Data source: NIAID ChemDB in PubChem.

Shared fields: target-level tests; species: Candida albicans

Blank or dashed fields: not listed here. Rows are shuffled and stem from different studies. ICn: concentration for n% inhibition.

compound	strain or isolate	protein	endpoint	value
O=C(NCCNCc1ccc(-c2ccccc2)cc1)c1ccc2nc(NC(=O)C3CCCCC3)sc2c1		N-myristoyltransferase	IC50	0.025 µM
O=C(c1ccc(Cl)cc1)N1CCC(=Cc2ccc(C3=NCCO3)cc2)CC1		Oxidosqualene cyclase	IC50	0.009 µM
CC1(c2ccc(OCC#N)c(Cl)c2Cl)C(=O)c2ccccc2C1=O		Geranylgeranyl-protein transferase I	IC50	0.13 µM
O=C(NCCNCc1ccc2ccccc2c1)c1ccc2nc(NC(=O)C3CCCCC3)oc2c1		N-myristoyltransferase	IC50	0.29 µM
CN(C)CCOc1ccccc1/C=N\N1CCN(C2Cc3ccccc3Sc3ccc(Cl)cc32)CC1		Geranylgeranyl-protein transferase I	IC50	0.19 µM
CCOC(=O)c1oc2cccc(OCCCNCc3ccncc3)c2c1C	CY1002	N-myristoyltransferase	IC50	1.9 µM
CC(=O)c1ccc(OCC(=O)N[C@@H](Cc2ccccc2)C[C@H](O)[C@H](Cc2ccccc2)NC(=O)COc2ccc(C(C)=O)cc2)cc1	H12	Aspartic protease SAP2	IC50	5 µM
NC(=O)[C@@H](Cc1cnc[nH]1)NC(=O)[C@@H](Cc1cccc2ccccc12)NC(=O)C1c2ccccc2Oc2ccccc21		Geranylgeranyltransferase	IC50	<3 µM
O=C(NCCNCc1ccc2ccccc2c1)c1ccc2nc(NC(=O)N3CCCCC3)sc2c1		N-myristoyltransferase	IC50	>10 µM
CC(C)(C)OC(=O)N[C@@H](Cc1ccccc1)[C@@H](O)C[C@@H](Cc1ccccc1)C(=O)N[C@@H](CCC(=O)O)C(=O)N[C@@H](Cc1ccccc1)C(N)=O		Aspartic proteinase	IC50	>100 µM
CCCCCCCC/C=C\CC/C=C/[C@H]1C[C@H]([C@](O)(CC(=O)O)C(=O)O)C(=O)O1		Geranylgeranyltransferase I	IC50	15 µM
CCC(C)CC(C)CCCCCCCCC(=O)N[C@H]1C[C@@H](O)[C@@H](O)NC(=O)[C@@H]2[C@@H](O)CCN2C(=O)[C@H]([C@H](O)CCNC)NC(=O)[C@H]([C@H](O)Cc2ccc(O)cc2)NC(=O)[C@@H]2C[C@@H](O)CN2C(=O)[C@H]([C@@H](C)O)NC1=O	MY1055	Glucan synthase	IC50	0.007 µM
COC(=O)N[C@@H](CCCN=C(N)N)C(=O)NC(=O)CCCc1cc(-c2cc3ccccc3cn2)n(-c2ccc3ccccc3c2)n1		Farnesyl-protein transferase	IC50	78 µM
Cc1cccc(C)c1OCC(=O)N[C@@H](Cc1ccccc1)C[C@H](O)[C@H](Cc1ccccc1)NC(=O)COc1c(C)cccc1C	H12	Aspartic protease SAP2	IC50	50 µM
Cn1c(NC(=O)C2CCCCC2)nc2ccc(C(=O)NCCNCc3ccc4ccccc4c3)cc21		N-myristoyltransferase	IC50	>10 µM
CC[C@H](C)[C@H](NC(=O)[C@H](Cc1ccccc1)C[C@H](O)[C@H](Cc1ccccc1)NC(=O)OC(C)(C)C)C(=O)N[C@@H](Cc1ccccc1)C(N)=O		Aspartic proteinase	IC50	>100 µM
Cn1c(NC(=O)C2CCCCC2)nc2cc(C(=O)NCCNCc3ccc4ccccc4c3)ccc21		N-myristoyltransferase	IC50	>10 µM
CCC(C)CC(C)CCCCCCCCC(=O)N[C@H]1C[C@@H](O)[C@@H](O)NC(=O)[C@@H]2[C@@H](O)CCN2C(=O)[C@H]([C@H](O)CCN=CNN)NC(=O)[C@H]([C@H](O)Cc2ccc(O)cc2)NC(=O)[C@@H]2C[C@@H](O)CN2C(=O)[C@H]([C@@H](C)O)NC1=O	MY1055	Glucan synthase	IC50	0.007 µM
CC(=O)c1ccc(OCC(=O)N[C@@H](Cc2ccccc2)C[C@@H](O)[C@H](Cc2ccccc2)NC(=O)COc2ccc(C(C)=O)cc2)cc1	H12	Aspartic protease SAP2	IC50	12 µM
CCOC(=O)c1oc2cccc(OCCCNCc3cccnc3)c2c1C		N-myristoyltransferase	IC50	0.1 µM
COC(=O)C(CCSC)NC(=O)C1(Cc2ccccc2C)CCN(C(=O)[C@@H](N)CS)CC1		Geranylgeranyl-protein transferase I	IC50	0.26 µM
CC(C)(C)OC(=O)N[C@@H](Cc1ccccc1)[C@H](O)C[C@H](Cc1ccccc1)C(=O)N[C@@H](CCC(=O)O)C(=O)N[C@@H](Cc1ccccc1)C(N)=O		Aspartic proteinase	IC50	14 µM
O=C(NCCNCc1ccc2ccccc2c1)c1ccc2sc(NC(=O)C3CCCCC3)nc2c1		N-myristoyltransferase	IC50	6.8 µM
O=C(COc1ccccc1O)N[C@@H](Cc1ccccc1)C[C@H](O)[C@H](Cc1ccccc1)NC(=O)COc1ccccc1O	H12	Aspartic protease SAP2	IC50	25 µM
CN(C)C(=O)c1ccc2nc(NC(=O)CC3CCC[C@@H](NCc4ccc5ccccc5c4)C3)sc2c1		N-myristoyltransferase	IC50	0.011 µM
CC(C)[C@@H](NC(=O)c1cc(=O)c2ccccc2[nH]1)C(=O)N[C@@H](Cc1ccccc1)C[C@@H](O)[C@H](Cc1ccccc1)NC(=O)[C@H](NC(=O)c1cc(=O)c2ccccc2[nH]1)C(C)C	H12	Aspartic protease SAP2	IC50	12 µM
CCOC(=O)c1oc2cccc(OCCCNCCc3cccnc3)c2c1C	CY1002	N-myristoyltransferase	IC50	0.39 µM
O=C([O-])c1c(F)c(F)cc(F)c1F	Nce103	Beta-carbonic anhydrase	Ki	61.6 µM
CCC(C)CC(C)CCCCCCCCC(=O)N[C@H]1C[C@@H](O)[C@@H](O)NC(=O)[C@@H]2[C@@H](O)CCN2C(=O)[C@H]([C@H](O)CCN(C)C)NC(=O)[C@H]([C@H](O)Cc2ccc(O)cc2)NC(=O)[C@@H]2C[C@@H](O)CN2C(=O)[C@H]([C@@H](C)O)NC1=O	MY1055	Glucan synthase	IC50	0.005 µM
CC(C)(C)OC(=O)N[C@@H](Cc1ccccc1)[C@H](O)C[C@H](Cc1ccccc1)C(=O)N[C@@H](CCC(N)=O)C(=O)N[C@@H](Cc1ccccc1)C(N)=O		Aspartic proteinase	IC50	28 µM